Data as given in PubChem BioAssay AID624099 (ICCB-Longwood, 2012)
The whole screen tested about 21,000 reagents; below is a random part of them. In the full data, 497 (2.4%) were called active. 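Higher z means weaker E2 silencing; only reporter increases were scored, and knock-downs that hurt cell survival may mask genuine repressor factors.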 Entries without a mark were called inactive.

Test: 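Host factors E2 relies on to silence an HPV18 LCR reporter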 (primary screen)
Cells: human C33A cervical carcinoma cells (HPV-negative) stably expressing BPV1 E2 and an HPV18 LCR luciferase reporter
Reagents: siRNA pool against human genes, 40 nM
Timing: 72 h
Measurement: 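Per-well luciferase luminescence, z-scored on each plate against the plate mean and SD with control wells left out, then averaged across three replicate plates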
Direction: mean z-score and z-score: higher = stronger reporter signal, weaker E2 silencing
Hit rule: 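Hit if mean z-score reaches 2 and two or more of three replicate z-scores also reach 2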

EOLA1 (GeneID 91966) [SID134322338] → mean z-score: -0.34; z-score, replicate A: -0.44; z-score, replicate B: -0.28; z-score, replicate C: -0.31
COX4I2 (GeneID 84701) [SID134317809] → mean z-score: -0.98; z-score, replicate A: -0.83; z-score, replicate B: -1.16; z-score, replicate C: -0.95
LOC143158 (retired record) (GeneID 143158) [SID134326525] → mean z-score: -1.03; z-score, replicate A: -1.21; z-score, replicate B: -1.48; z-score, replicate C: -0.38
MCM4 (GeneID 4173) [SID56478622] → mean z-score: 1.02; z-score, replicate A: 0.76; z-score, replicate B: 1.06; z-score, replicate C: 1.25
FBLIM1 (GeneID 54751) [SID134317981] → mean z-score: 1.18; z-score, replicate A: 1.42; z-score, replicate B: 0.93; z-score, replicate C: 1.19
OR1J2 (GeneID 26740) [SID134326486] → mean z-score: 0.5; z-score, replicate A: 0.43; z-score, replicate B: 0.3; z-score, replicate C: 0.77
SSB (GeneID 6741) [SID134312022] → mean z-score: -0.52; z-score, replicate A: -0.35; z-score, replicate B: -0.46; z-score, replicate C: -0.74
SMARCE1 (GeneID 6605) [SID134321455] → mean z-score: 0.36; z-score, replicate A: 0.55; z-score, replicate B: 0.27; z-score, replicate C: 0.25
MAPKAPK2 (GeneID 9261) [SID56478668] → mean z-score: -0.83; z-score, replicate A: -1.06; z-score, replicate B: -0.68; z-score, replicate C: -0.76
AAGAB (GeneID 79719) [SID134319908] → mean z-score: 0.09; z-score, replicate A: -0.02; z-score, replicate B: 0.15; z-score, replicate C: 0.14
TMEM160 (GeneID 54958) [SID134324476] → mean z-score: 1.58; z-score, replicate A: 1.05; z-score, replicate B: 1.54; z-score, replicate C: 2.17
HMGB1P10 (GeneID 100130561) [SID134315333] → mean z-score: 0.65; z-score, replicate A: 0.85; z-score, replicate B: 0.42; z-score, replicate C: 0.67
C3orf70 (GeneID 285382) [SID134325796] → mean z-score: 1.02; z-score, replicate A: 1.08; z-score, replicate B: 0.82; z-score, replicate C: 1.15
ELOVL2 (GeneID 54898) [SID134314263] → mean z-score: 0.3; z-score, replicate A: -0.32; z-score, replicate B: 0.27; z-score, replicate C: 0.96
CCDC15 (GeneID 80071) [SID134318679] → mean z-score: -0.33; z-score, replicate A: -0.44; z-score, replicate B: -0.45; z-score, replicate C: -0.09
EFCAB9 (GeneID 285588) [SID134326033] → mean z-score: -0.14; z-score, replicate A: -0.32; z-score, replicate B: -0.01; z-score, replicate C: -0.09
LOC388214 (retired record) (GeneID 388214) [SID134328638] → mean z-score: 0.2; z-score, replicate A: 0.28; z-score, replicate B: 0.11; z-score, replicate C: 0.2

Look-ups from above:
OR1J2 (GeneID 26740) [SID134326486], z-score, replicate B: 0.3
Value of FBLIM1 (GeneID 54751) [SID134317981] under “z-score, replicate C”: 1.19

Next reagents:
REG1B (GeneID 5968) [SID134316578] → mean z-score: 0.05; z-score, replicate A: -0.15; z-score, replicate B: 0.19; z-score, replicate C: 0.12
AREG (GeneID 374) [SID134321371] → mean z-score: 0.39; z-score, replicate A: 0.16; z-score, replicate B: 0.7; z-score, replicate C: 0.31
ABI1 (GeneID 10006) [SID56479175] → mean z-score: 0.55; z-score, replicate A: 0.96; z-score, replicate B: 0.28; z-score, replicate C: 0.41
GALNT5 (GeneID 11227) [SID134318373] → mean z-score: -0.73; z-score, replicate A: -0.58; z-score, replicate B: -0.68; z-score, replicate C: -0.93
SPTAN1 (GeneID 6709) [SID134314624] → mean z-score: 0.06; z-score, replicate A: 0.36; z-score, replicate B: -0.02; z-score, replicate C: -0.15
PPP5C (GeneID 5536) [SID134314024] → mean z-score: -0.42; z-score, replicate A: -0.35; z-score, replicate B: -0.56; z-score, replicate C: -0.35
GIGYF2 (GeneID 26058) [SID134318114] → mean z-score: 0.06; z-score, replicate A: 0.39; z-score, replicate B: -0.07; z-score, replicate C: -0.14
UCP1 (GeneID 7350) [SID134312681] → mean z-score: 0.28; z-score, replicate A: 0.32; z-score, replicate B: 0.16; z-score, replicate C: 0.35
TBC1D14 (GeneID 57533) [SID134318220] → mean z-score: 0.3; z-score, replicate A: 0.29; z-score, replicate B: 0.31; z-score, replicate C: 0.3
ST18 (GeneID 9705) [SID134313323] → mean z-score: 0.5; z-score, replicate A: 0.5; z-score, replicate B: 0.44; z-score, replicate C: 0.56
